Potato spindle tuber viroid, loop 6: variant abundance in plants

Values reported by Wu et al. 2024 (doi:10.1371/journal.ppat.1012142).

Region: loop 6 of PSTVd (intermediate strain), upper and lower strand joined, each 5' to 3', the first 5 letters being the upper strand, closing pairs included. Wild type: UGACCGCGAG. Varied positions (N): UNNNCGNNNG.

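Three N. benthamiana plants were inoculated with the whole mutant pool. Progeny were sequenced from the inoculated region (day 5), the margin of the inoculated leaf (day 10) and systemic leaves (day 12).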

Values are reads per thousand in the sample; higher means more abundant, 0 means not found.
Each site shows the three plants.
"Pool" is the share in the plasmid pool used as inoculum, on the same scale.
The inoculated region was read from the minus strand, the other sites from the plus strand.

| sequence | pool | inoculated region | leaf margin | systemic leaves |
|---|---|---|---|---|
| UUAUCGGUGG | 0.157 | 0.174 / 0.0539 / 0.0738 | 0 / 0 / 0.0232 | 0 / 0 / 0 |
| UUAUCGGUUG | 0.431 | 0.122 / 0.0539 / 0.0553 | 0 / 0 / 0.0464 | 0 / 0 / 0 |
| UUAUCGUAAG | 0.0915 | 0.104 / 0.0539 / 0.0553 | 0 / 0 / 0.0232 | 0 / 0 / 0 |
| UUAUCGUACG | 0.379 | 0.0521 / 0.0719 / 0.0738 | 0 / 0 / 0 | 0 / 0 / 0 |
| UUAUCGUAGG | 0.301 | 0.139 / 0.0719 / 0.129 | 0.0276 / 0 / 0.0232 | 0 / 0 / 0 |
| UUAUCGUAUG | 0.340 | 0.122 / 0.126 / 0.0553 | 0.193 / 0 / 0 | 0 / 0 / 0 |
| UUAUCGUCAG | 0.353 | 0.122 / 0.126 / 0.0738 | 0.0276 / 0 / 0 | 0 / 0 / 0 |
| UUAUCGUCCG | 0.366 | 0.174 / 0.108 / 0.0922 | 0 / 0 / 0.0232 | 0 / 0 / 0 |
| UUAUCGUCGG | 0.366 | 0.122 / 0.0719 / 0.0738 | 0 / 0 / 0.0232 | 0 / 0 / 0 |
| UUAUCGUCUG | 0.301 | 0.0695 / 0.0719 / 0.0922 | 0 / 0 / 0 | 0 / 0 / 0 |
| UUAUCGUGAG | 0.418 | 0.0869 / 0.126 / 0.129 | 0 / 0 / 0.0232 | 0 / 0 / 0 |
| UUAUCGUGCG | 0.248 | 0.139 / 0.126 / 0.0553 | 0 / 0 / 0.0232 | 0 / 0 / 0 |
| UUAUCGUGGG | 0.196 | 0.139 / 0.0359 / 0.0922 | 0 / 0 / 0 | 0 / 0 / 0 |
| UUAUCGUGUG | 0.366 | 0.122 / 0.0898 / 0.0922 | 0 / 0 / 0 | 0 / 0 / 0 |
| UUAUCGUUAG | 0.510 | 0.139 / 0.0180 / 0.0922 | 0 / 0.0252 / 0 | 0 / 0 / 0 |
| UUAUCGUUCG | 0.288 | 0.139 / 0.108 / 0.0184 | 0.0552 / 0 / 0 | 0 / 0 / 0 |
| UUAUCGUUGG | 0.301 | 0.122 / 0.0539 / 0.0553 | 0 / 0 / 0 | 0 / 0 / 0 |
| UUAUCGUUUG | 0.327 | 0.139 / 0.0539 / 0.0369 | 0 / 0 / 0 | 0 / 0 / 0 |
| UUAUCUACGG | 0.0131 | 0 / 0 / 0 | 0 / 0 / 0 | 0 / 0 / 0 |
| UUAUCUCUGG | 0.0131 | 0 / 0 / 0 | 0 / 0 / 0 | 0 / 0 / 0 |
| UUAUCUGUCC | 0.0131 | 0 / 0 / 0 | 0 / 0 / 0 | 0 / 0 / 0 |
| UUAUCUGUGG | 0.0131 | 0 / 0 / 0 | 0 / 0 / 0 | 0 / 0 / 0 |
| UUCAAGAUCG | 0.0131 | 0 / 0 / 0 | 0 / 0 / 0 | 0 / 0 / 0 |
| UUCACGAAAG | 0.196 | 0.0521 / 0.0359 / 0.0553 | 0 / 0 / 0.0464 | 0 / 0 / 0 |
| UUCACGAACG | 0.340 | 0.695 / 0.449 / 0.443 | 0.0828 / 0.126 / 0.0464 | 0 / 0 / 0 |
| UUCACGAAGG | 0.222 | 0.0695 / 0 / 0.129 | 0 / 0 / 0 | 0 / 0 / 0 |
| UUCACGAAUG | 0.431 | 0.104 / 0.0898 / 0.129 | 0.0276 / 0 / 0 | 0 / 0 / 0 |
| UUCACGACAG | 0.196 | 0.0521 / 0.0359 / 0.0922 | 0 / 0 / 0 | 0 / 0 / 0 |
| UUCACGACCG | 0.366 | 0.156 / 0.0719 / 0.0553 | 0 / 0 / 0.0232 | 0 / 0 / 0 |
| UUCACGACGG | 0.275 | 0.0521 / 0.162 / 0.0738 | 0 / 0 / 0 | 0 / 0 / 0 |
| UUCACGACUG | 0.379 | 0.122 / 0.126 / 0.0184 | 0 / 0 / 0 | 0 / 0 / 0 |
| UUCACGAGAG | 0.366 | 0.104 / 0.108 / 0.111 | 0.0276 / 0 / 0 | 0 / 0 / 0 |
| UUCACGAGCG | 0.366 | 0.0869 / 0.0898 / 0.0369 | 0 / 0 / 0 | 0 / 0 / 0 |
| UUCACGAGGG | 0.196 | 0.191 / 0.108 / 0.111 | 0 / 0 / 0 | 0 / 0 / 0 |
| UUCACGAGUG | 0.314 | 0.104 / 0.0359 / 0.0184 | 0 / 0 / 0 | 0 / 0 / 0 |
| UUCACGAUAG | 0.405 | 0.122 / 0.0719 / 0.0369 | 0 / 0 / 0.139 | 0 / 0 / 0 |
| UUCACGAUCG | 0.301 | 0.139 / 0.0719 / 0.111 | 0 / 0 / 0.0232 | 0 / 0 / 0 |
| UUCACGAUGG | 0.314 | 0.0521 / 0.108 / 0.0922 | 0 / 0 / 0 | 0 / 0 / 0 |
| UUCACGAUUG | 0.379 | 0.139 / 0.0719 / 0.0922 | 0 / 0 / 0 | 0 / 0 / 0 |
| UUCACGCAAG | 0.170 | 0.626 / 0.665 / 0.406 | 0 / 0.151 / 0.0464 | 0 / 0 / 0 |
| UUCACGCACG | 0.314 | 0.904 / 0.539 / 0.664 | 0.0276 / 0.177 / 0.0928 | 0 / 0 / 0 |
| UUCACGCAGG | 0.209 | 0.0521 / 0.108 / 0.0922 | 0.0276 / 0 / 0.0464 | 0 / 0 / 0 |
| UUCACGCAUG | 0.353 | 0.122 / 0.162 / 0.0738 | 0 / 0 / 0 | 0 / 0 / 0 |
| UUCACGCCAG | 0.275 | 0.104 / 0.126 / 0.111 | 0 / 0 / 0 | 0 / 0 / 0 |
| UUCACGCCCG | 0.222 | 0.156 / 0.162 / 0.111 | 0 / 0 / 0 | 0 / 0 / 0.0205 |
| UUCACGCCGG | 0.301 | 0.0695 / 0.0719 / 0.111 | 0 / 0 / 0 | 0 / 0 / 0 |

The opening 3 entries, copied out:

| sequence | pool | inoculated region | leaf margin | systemic leaves |
|---|---|---|---|---|
| UUAUCGGUGG | 0.157 | 0.174 / 0.0539 / 0.0738 | 0 / 0 / 0.0232 | 0 / 0 / 0 |
| UUAUCGGUUG | 0.431 | 0.122 / 0.0539 / 0.0553 | 0 / 0 / 0.0464 | 0 / 0 / 0 |
| UUAUCGUAAG | 0.0915 | 0.104 / 0.0539 / 0.0553 | 0 / 0 / 0.0232 | 0 / 0 / 0 |

Wild type was 20.7 per thousand in the pool and the most common sequence in every sample (inoculated region 195, 198, 203; leaf margin 629, 591, 734; systemic leaves 942, 870, 868).
The authors trace changes outside the varied positions to PCR and sequencing errors or to mutation in the plant; presence does not show that a variant is infectious alone.
Samples held 36,220 to 57,551 reads, so the smallest values rest on one or two reads.